Where two headings read alike, the source gives them in different places.
Key:
TQ PfPKG (PfPKG_T618Q) = TQ PfPKG (PfPKG_T618Q) (Plasmodium falciparum, UniProt Q8I719, T618Q); settings: read-out: PfPKG_T618Q; Table 2, gatekeeper mutant
WT PfPKG = WT PfPKG (Plasmodium falciparum, UniProt Q8I719); settings: read-out: WT PfPKG
PKG (PF3D7_1436600) = PKG (PF3D7_1436600) (Plasmodium falciparum, UniProt Q8I719); settings: for relative abundance, compound competition 20 uM: relative to vehicle control
HuPKGIα = HuPKGIα (Homo sapiens, UniProt Q13976); experiment: Kinase Glo enzymatic assay, human PKG; type: biochemical; settings: read-out: human PKG; Table 2
PF3D7_1231400, PFL1515c = PF3D7_1231400, PFL1515c (Plasmodium falciparum, UniProt Q8I5A6); settings: for relative abundance, compound competition 20 uM: relative to vehicle control
P. falciparum clone 3D7A = experiment: Whole cell parasite growth inhibition assay (LDH), WT parasites
TQ P.falciparum = experiment: Whole cell parasite growth inhibition assay, TQ parasites
[1] = system: P. falciparum (NF54 isolate) female gametocytes; experiment: Dual gamete activation assay, female (Pfs25 expression); settings: read-out: female (gamete formation); female gametes, 48 h incubation
[2] = system: P. falciparum (NF54 isolate) male gametocytes; experiment: Dual gamete activation assay, male (exflagellation); settings: read-out: male (gamete formation); male gametes, 48 h incubation
CDPK4 = CDPK4 (Plasmodium falciparum, UniProt Q8IBS5); settings: maximum concentration 20 µM
CK1 = CK1 (Plasmodium falciparum, UniProt Q8IHZ9); settings: maximum concentration 20 µM
CDPK1 = CDPK1 (Plasmodium falciparum, UniProt P62344)
[3] = biological target: putative protein kinase Pf3D7_0926100 (Plasmodium falciparum, UniProt Q8I2P8); settings: maximum concentration 20 µM
NEK1 = NEK1 (Plasmodium falciparum, UniProt Q8I5D5); settings: maximum concentration 20 µM
[4] = read-out: WT P.falciparum 48h, 48h
[5] = read-out: WT P.falciparum 72h, 72h
[6] = read-out: whole cell 48 h, Table 2, 48 h
[7] = read-out: whole cell 72 h, Table 2, 72 h
[8] = read-out: TQ P.falciparum 48h, 48h
[9] = read-out: TQ P.falciparum 72h, 72h

By UniProt entry, the sequences of proteins in these tests, tags left out. Residues count along the entry.
UniProt Q8I719, whole entry: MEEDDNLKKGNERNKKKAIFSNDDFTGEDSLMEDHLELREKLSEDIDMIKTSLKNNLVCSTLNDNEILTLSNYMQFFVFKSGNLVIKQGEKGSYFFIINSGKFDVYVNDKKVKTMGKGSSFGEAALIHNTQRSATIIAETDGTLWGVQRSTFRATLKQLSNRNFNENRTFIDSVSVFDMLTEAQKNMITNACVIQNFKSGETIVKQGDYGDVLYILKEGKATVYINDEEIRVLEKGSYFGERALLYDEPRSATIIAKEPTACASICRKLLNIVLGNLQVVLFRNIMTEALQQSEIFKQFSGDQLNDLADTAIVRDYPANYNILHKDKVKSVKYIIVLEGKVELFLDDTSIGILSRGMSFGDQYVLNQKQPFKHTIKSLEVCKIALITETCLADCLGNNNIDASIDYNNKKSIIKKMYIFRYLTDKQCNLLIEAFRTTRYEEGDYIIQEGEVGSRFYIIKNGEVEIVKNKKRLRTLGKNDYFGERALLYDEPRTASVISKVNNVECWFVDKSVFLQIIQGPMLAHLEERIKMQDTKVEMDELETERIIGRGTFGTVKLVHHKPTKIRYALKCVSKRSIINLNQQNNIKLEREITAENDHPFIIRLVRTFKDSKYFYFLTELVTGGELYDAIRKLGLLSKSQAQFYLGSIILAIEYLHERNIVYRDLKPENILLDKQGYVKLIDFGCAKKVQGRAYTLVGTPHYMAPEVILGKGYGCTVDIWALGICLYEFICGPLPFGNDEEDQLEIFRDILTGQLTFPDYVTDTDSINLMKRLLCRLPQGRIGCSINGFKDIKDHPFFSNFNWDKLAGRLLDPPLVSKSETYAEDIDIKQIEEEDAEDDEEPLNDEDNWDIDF
UniProt Q8I719, whole entry T618Q: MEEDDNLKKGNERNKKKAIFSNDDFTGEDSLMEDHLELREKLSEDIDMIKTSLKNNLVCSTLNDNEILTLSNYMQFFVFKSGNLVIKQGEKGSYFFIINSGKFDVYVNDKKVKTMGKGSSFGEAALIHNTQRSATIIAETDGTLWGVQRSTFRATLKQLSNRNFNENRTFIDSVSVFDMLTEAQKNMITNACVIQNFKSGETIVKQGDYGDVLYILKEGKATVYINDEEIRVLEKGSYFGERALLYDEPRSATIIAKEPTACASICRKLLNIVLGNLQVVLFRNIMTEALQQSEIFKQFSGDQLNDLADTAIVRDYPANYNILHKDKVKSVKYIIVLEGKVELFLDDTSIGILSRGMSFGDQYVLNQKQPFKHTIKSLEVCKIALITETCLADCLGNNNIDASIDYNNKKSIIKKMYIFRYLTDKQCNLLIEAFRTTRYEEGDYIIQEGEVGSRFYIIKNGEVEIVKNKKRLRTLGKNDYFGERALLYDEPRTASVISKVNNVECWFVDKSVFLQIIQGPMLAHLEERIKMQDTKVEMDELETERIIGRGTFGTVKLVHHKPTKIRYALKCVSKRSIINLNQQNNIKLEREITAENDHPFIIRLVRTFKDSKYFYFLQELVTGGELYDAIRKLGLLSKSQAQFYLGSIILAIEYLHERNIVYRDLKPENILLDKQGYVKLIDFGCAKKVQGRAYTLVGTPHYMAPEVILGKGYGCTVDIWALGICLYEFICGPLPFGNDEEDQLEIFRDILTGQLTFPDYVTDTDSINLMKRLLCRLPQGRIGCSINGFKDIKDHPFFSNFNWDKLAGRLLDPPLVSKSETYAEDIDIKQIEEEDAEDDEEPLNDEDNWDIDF
UniProt Q13976, whole entry: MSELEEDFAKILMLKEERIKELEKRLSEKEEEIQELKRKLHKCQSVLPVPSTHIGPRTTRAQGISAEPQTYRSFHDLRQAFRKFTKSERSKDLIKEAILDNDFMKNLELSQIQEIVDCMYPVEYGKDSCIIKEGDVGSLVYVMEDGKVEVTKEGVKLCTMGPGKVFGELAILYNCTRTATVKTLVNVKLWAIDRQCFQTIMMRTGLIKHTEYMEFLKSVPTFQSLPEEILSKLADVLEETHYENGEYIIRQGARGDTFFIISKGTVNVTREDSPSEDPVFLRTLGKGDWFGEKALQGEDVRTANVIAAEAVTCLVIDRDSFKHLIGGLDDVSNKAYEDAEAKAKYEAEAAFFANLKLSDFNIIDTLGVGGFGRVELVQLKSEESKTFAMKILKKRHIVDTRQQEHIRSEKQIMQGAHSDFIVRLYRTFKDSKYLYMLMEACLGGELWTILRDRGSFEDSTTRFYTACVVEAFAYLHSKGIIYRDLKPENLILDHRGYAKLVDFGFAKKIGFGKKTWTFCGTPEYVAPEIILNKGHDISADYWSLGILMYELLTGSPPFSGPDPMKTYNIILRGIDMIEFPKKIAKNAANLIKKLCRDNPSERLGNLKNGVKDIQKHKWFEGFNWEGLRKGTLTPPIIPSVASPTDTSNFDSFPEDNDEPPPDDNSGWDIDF
UniProt Q8I5A6, 1-1944: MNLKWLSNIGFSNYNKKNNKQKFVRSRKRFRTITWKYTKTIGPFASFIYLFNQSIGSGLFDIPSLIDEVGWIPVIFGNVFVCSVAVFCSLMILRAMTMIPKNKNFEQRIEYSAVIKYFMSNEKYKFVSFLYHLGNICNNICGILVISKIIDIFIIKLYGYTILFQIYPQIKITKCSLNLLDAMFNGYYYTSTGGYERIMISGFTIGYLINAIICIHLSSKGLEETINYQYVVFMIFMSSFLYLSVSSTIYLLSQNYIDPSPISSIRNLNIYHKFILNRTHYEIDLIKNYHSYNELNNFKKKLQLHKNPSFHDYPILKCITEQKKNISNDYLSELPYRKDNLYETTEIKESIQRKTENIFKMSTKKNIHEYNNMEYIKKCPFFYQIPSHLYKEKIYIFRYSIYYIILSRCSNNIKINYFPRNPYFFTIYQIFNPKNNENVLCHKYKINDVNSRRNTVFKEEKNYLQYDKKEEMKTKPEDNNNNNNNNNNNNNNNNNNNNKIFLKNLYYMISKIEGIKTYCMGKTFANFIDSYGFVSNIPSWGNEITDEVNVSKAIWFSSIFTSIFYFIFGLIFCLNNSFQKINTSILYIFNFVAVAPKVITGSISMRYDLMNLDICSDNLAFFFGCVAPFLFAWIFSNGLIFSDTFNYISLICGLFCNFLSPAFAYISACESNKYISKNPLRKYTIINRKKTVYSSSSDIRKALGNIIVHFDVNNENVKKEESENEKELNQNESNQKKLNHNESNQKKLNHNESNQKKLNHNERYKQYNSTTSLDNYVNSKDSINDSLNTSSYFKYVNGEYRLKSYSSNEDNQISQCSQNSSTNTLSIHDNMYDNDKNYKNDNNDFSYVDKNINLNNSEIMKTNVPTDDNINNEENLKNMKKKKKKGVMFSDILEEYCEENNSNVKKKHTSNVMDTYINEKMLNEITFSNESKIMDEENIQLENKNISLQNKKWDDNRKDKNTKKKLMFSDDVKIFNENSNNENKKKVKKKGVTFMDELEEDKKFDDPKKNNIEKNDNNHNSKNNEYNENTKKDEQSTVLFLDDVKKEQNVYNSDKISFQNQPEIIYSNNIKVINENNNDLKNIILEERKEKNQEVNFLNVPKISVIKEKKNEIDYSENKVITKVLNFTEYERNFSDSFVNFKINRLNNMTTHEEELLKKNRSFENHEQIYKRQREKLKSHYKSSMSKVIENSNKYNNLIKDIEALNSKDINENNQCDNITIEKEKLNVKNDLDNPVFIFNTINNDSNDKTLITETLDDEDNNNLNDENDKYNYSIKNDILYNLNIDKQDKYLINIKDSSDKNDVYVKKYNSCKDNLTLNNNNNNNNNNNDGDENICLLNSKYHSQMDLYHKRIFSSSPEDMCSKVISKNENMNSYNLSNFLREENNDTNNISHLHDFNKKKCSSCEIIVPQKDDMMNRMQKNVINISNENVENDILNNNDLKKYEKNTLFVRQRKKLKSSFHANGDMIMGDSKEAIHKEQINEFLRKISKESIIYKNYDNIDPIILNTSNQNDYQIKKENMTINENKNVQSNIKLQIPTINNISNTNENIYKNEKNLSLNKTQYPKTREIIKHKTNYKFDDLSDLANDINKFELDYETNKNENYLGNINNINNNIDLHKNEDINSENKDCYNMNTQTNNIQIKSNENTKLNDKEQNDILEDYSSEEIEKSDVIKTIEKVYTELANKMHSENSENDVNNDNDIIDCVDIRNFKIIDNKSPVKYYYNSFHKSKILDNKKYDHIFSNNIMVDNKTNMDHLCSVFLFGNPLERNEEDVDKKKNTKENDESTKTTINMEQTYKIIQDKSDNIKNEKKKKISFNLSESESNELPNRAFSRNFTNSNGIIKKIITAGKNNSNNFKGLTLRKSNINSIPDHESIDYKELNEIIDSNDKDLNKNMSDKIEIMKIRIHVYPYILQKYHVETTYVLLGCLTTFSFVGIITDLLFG
UniProt Q8IBS5, whole entry: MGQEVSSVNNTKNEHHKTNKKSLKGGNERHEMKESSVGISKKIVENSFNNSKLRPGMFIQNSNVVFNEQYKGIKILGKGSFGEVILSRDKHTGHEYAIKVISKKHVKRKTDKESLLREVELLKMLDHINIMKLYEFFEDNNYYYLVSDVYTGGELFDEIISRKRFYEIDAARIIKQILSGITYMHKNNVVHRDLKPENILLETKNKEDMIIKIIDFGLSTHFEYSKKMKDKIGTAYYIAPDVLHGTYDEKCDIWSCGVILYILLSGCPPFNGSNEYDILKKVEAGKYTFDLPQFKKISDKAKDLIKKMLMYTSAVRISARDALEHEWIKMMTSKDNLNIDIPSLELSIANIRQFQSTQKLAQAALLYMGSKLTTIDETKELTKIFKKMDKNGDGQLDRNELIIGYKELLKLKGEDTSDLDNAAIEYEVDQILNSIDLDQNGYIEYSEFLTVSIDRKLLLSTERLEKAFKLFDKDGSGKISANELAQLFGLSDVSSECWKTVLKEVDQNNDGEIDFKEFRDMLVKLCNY
UniProt Q8IHZ9, whole entry: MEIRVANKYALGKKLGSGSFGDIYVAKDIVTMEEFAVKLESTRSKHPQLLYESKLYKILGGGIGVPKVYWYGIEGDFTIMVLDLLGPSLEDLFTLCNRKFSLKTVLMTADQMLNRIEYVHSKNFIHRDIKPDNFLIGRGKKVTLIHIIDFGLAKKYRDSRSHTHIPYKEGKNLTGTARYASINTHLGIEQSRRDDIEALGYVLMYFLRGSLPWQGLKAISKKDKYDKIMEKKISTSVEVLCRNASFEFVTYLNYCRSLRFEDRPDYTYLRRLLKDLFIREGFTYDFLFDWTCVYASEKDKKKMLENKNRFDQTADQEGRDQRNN
UniProt P62344, whole entry: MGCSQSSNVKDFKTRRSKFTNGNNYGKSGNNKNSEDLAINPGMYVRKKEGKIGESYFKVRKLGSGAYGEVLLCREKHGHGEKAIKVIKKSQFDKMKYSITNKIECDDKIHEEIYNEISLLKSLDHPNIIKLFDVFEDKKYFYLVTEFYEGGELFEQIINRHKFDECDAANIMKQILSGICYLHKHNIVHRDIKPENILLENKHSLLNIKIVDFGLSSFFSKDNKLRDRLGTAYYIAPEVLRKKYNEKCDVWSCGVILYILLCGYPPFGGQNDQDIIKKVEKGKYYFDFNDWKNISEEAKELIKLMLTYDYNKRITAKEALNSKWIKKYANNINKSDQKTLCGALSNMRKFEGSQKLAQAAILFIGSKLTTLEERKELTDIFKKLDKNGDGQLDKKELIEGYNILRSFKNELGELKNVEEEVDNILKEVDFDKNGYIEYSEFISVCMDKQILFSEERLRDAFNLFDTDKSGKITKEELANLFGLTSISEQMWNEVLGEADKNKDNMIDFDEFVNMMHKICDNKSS

Compound | IC50 (TQ PfPKG (PfPKG_T618Q)) | IC50 (WT PfPKG; Supplementary Table 2) | IC50 (WT PfPKG; Table 2) | relative abundance, compound competition 0.08 uM (PKG (PF3D7_1436600)) | relative abundance, compound competition 0.74 uM (PKG (PF3D7_1436600)) | relative abundance, compound competition 2.22 uM (PKG (PF3D7_1436600)) | relative abundance, compound competition 6.67 uM (PKG (PF3D7_1436600)) | relative abundance, compound competition 20 uM (PKG (PF3D7_1436600)) | relative abundance, compound competition 0.25 uM (PKG (PF3D7_1436600)) | IC50 (HuPKGIα) | relative abundance, compound competition 0.08 uM (PF3D7_1231400, PFL1515c) | relative abundance, compound competition 0.74 uM (PF3D7_1231400, PFL1515c) | relative abundance, compound competition 2.22 uM (PF3D7_1231400, PFL1515c) | relative abundance, compound competition 6.67 uM (PF3D7_1231400, PFL1515c) | EC50 (P. falciparum clone 3D7A; [4]) | EC50 (P. falciparum clone 3D7A; [5]) | EC50 (P. falciparum clone 3D7A; [6]) | EC50 (P. falciparum clone 3D7A; [7]) | EC50 (TQ P.falciparum; [8]) | EC50 (TQ P.falciparum; [9]) | also measured
Nc1nccc(-c2sc(C3CCNCC3)nc2-c2cccc(NS(=O)(=O)c3ccoc3)c2F)n1 | > 1000 nM | 0.93 nM | 0.9 nM | 0.0164 | 0.0108 | 0.0124 | 0.0107 | 0.0123 | 0.012 | > 1000 nM | 0.05 | 0.00253 | 0.00341 | 0.0213 | 184 nM | 135 nM | 180 nM | 140 nM | > 5000 nM | > 5000 nM | relative abundance, compound competition 20 uM (PF3D7_1231400, PFL1515c): 0.00607; relative abundance, compound competition 0.25 uM (PF3D7_1231400, PFL1515c): 0.0229; EC50 [1]: 2400 nM; EC50 [2]: 2000 nM
Nc1nccc(-c2sc(N3CCNCC3)nc2-c2cccc(NS(=O)(=O)c3ccoc3)c2Cl)n1 | > 1000 nM | – | 1.1 nM | 0.0181 | 0.0119 | 0.0128 | 0.01 | 0.01 | 0.0106 | > 1000 nM | – | – | – | – | 3400 nM | 2940 nM | 3400 nM | 2900 nM | > 5000 nM | > 5000 nM | CDPK4 affected (competed) on Kinobeads (CDPK4): not; CK1 affected (competed) on Kinobeads (CK1): not; pIC50 (Kinobeads competition) (CDPK1): 7.05; relative abundance, compound competition 0.08 uM (CDPK1; 0.08 uM): 0.52; relative abundance, compound competition 0.74 uM (CDPK1; 0.74 uM): 0.15; relative abundance, compound competition 2.22 uM (CDPK1; 2.22 uM): 0.10; relative abundance, compound competition 6.67 uM (CDPK1; 6.67 uM): 0.0371; relative abundance, compound competition 20 uM (CDPK1; 20 uM, relative to vehicle control): 0.0282; relative abundance, compound competition 0.25 uM (CDPK1; […]): 0.33; IC50 (CDPK1; read-out: IC50 (Kinobeads competition)): 90 nM; Pf3D7_0926100 affected (competed) on Kinobeads [3]: not; NEK1 affected (competed) on Kinobeads (NEK1): not
CC1(c2nc(-c3cccc(NS(=O)(=O)c4ccoc4)c3F)c(-c3ccnc(N)n3)s2)CCNCC1 | 500 nM | 0.81 nM | 0.8 nM | 0.02 | 0.013 | 0.0114 | 0.0126 | 0.0137 | 0.0123 | > 1000 nM | 0.0426 | 0.019 | 0.0163 | 0.00655 | 188 nM | 167 nM | 190 nM | 170 nM | > 5000 nM | > 5000 nM | relative abundance, compound competition 20 uM (PF3D7_1231400, PFL1515c): 0.0139; relative abundance, compound competition 0.25 uM (PF3D7_1231400, PFL1515c): 0.0157; EC50 [1]: 800 nM; EC50 [2]: 500 nM
